Molecular target: TcpK (Clostridium perfringens (plasmid pCW3))
Assay: AUC

TcpK (natural protein)
stoichiometry N: 2

From publication PMC6137059, “Crystal structure of TcpK in complex with oriT DNA of the antibiotic resistance plasmid pCW3” (2018)
